Fold change is the IC50 on the isolate divided by the IC50 on a reference virus; 1 = unchanged, higher = more resistant. Changes are given against the subtype B consensus. No active / inactive call. The values were gathered from many studies (numbered anew) with different assays, which the source does not name. Most viruses are clinical isolates; some are laboratory strains or clones with known resistance changes. Isolates with mixed residues are left out; stretches that were not sequenced show no change. Round top values that many isolates share are read here as limits; other very high values and 0.1 may be limits too. The protease changes I3V and N37S, insertions and deletions cannot be read from the source.
Tests used:
Test in all cases: fold change of IC50 against reference virus; higher = more resistant; Cell-culture drug susceptibility tests of virus bearing the protease of each isolate, gathered from many studies.
nelfinavir = compound: Cc1c(O)cccc1C(=O)N[C@@H](CSc1ccccc1)[C@H](O)CN1C[C@H]2CCCC[C@H]2C[C@H]1C(=O)NC(C)(C)C [nelfinavir]
atazanavir = compound: COC(=O)N[C@H](C(=O)N[C@@H](Cc1ccccc1)[C@@H](O)CN(Cc1ccc(-c2ccccn2)cc1)NC(=O)[C@@H](NC(=O)OC)C(C)(C)C)C(C)(C)C [atazanavir]
tipranavir = compound: CCC[C@@]1(CCc2ccccc2)CC(O)=C([C@H](CC)c2cccc(NS(=O)(=O)c3ccc(C(F)(F)F)cn3)c2)C(=O)O1 [tipranavir]
lopinavir = compound: Cc1cccc(C)c1OCC(=O)N[C@@H](Cc1ccccc1)[C@@H](O)C[C@H](Cc1ccccc1)NC(=O)[C@H](C(C)C)N1CCCNC1=O [lopinavir]
saquinavir = compound: CC(C)(C)NC(=O)[C@@H]1C[C@@H]2CCCC[C@@H]2CN1C[C@@H](O)[C@H](Cc1ccccc1)NC(=O)[C@H](CC(N)=O)NC(=O)c1ccc2ccccc2n1 [saquinavir]
ritonavir = compound: CC(C)c1nc(CN(C)C(=O)N[C@H](C(=O)N[C@@H](Cc2ccccc2)C[C@H](O)[C@H](Cc2ccccc2)NC(=O)OCc2cncs2)C(C)C)cs1 [ritonavir]
indinavir = compound: CC(C)(C)NC(=O)[C@@H]1CN(Cc2cccnc2)CCN1C[C@@H](O)C[C@@H](Cc1ccccc1)C(=O)N[C@H]1c2ccccc2C[C@H]1O [indinavir]

| Test System | fold change of IC50 against reference virus (nelfinavir) | fold change of IC50 against reference virus (atazanavir) | fold change of IC50 against reference virus (tipranavir) | fold change of IC50 against reference virus (lopinavir) | fold change of IC50 against reference virus (saquinavir) | fold change of IC50 against reference virus (ritonavir) | fold change of IC50 against reference virus (indinavir) |
| --- | --- | --- | --- | --- | --- | --- | --- |
| HIV-1 isolate 11 (protease changes: L10F I15V K20I M36I M46I I47V I54V I62V L63P A71V I72T G73S I84V I85V L90M I93L, study 64) | 166 | 206 | 6.4 | 206 | – | – | – |
| HIV-1 isolate 254 (protease changes: L63P I72T V77I I93L, study 64) | 1 | 0.6 | 0.4 | – | 0.5 | 0.5 | 0.7 |
| HIV-1 isolate 479 (protease changes: N37Y R41K R57K V77I I93L, study 64) | 1.5 | 0.8 | 0.6 | – | 0.7 | 0.9 | 1.2 |
| HIV-1 isolate 510 (protease changes: L63P K70T I93L, study 64) | 1 | 0.8 | 0.6 | – | 0.6 | 0.5 | 0.7 |
| HIV-1 isolate 531 (protease changes: T4A L10F E35D N37E M46I L63P K70R A71V T74P I84V L90M I93L, study 8) | 30.1 | – | 1.1 | 9.4 | 29.8 | 19.5 | 10.6 |
| HIV-1 isolate 543 (protease changes: L10F V11I T12P I13V I15V L19P K20I E35G M36I M46I I54V L63P A71V I72L G73S I84V L90M I93L, study 64) | ≥ 600 | 182 | 5.1 | – | – | ≥ 800 | ≥ 500 |
| HIV-1 isolate 548 (protease changes: I15V M36I R41K, study 64) | 0.4 | 0.6 | 0.6 | – | 0.6 | 0.4 | 0.4 |
| HIV-1 isolate 577 (protease changes: V32I I47V Q61E L63P V82A I93L, study 124) | 2.1 | – | 0.4 | 2.7 | 0.2 | 4.8 | 3.3 |
| HIV-1 isolate 584 (protease changes: I13V K20R V32I L33F E35D M36I R41K K43T I47V I54M I62V L63V A71V I72T G73S T74P V82L L89V I93L, study 46) | 23 | 40 | 23 | 155 | 3.3 | – | 48 |
| HIV-1 isolate 692 (protease changes: L10F I13V D30N K45I I50L L63P A71I V77I N88D, study 46) | 196 | 35 | 0.4 | 0.9 | 6.6 | – | 1.1 |
| HIV-1 isolate 735 (protease changes: L10I E35D M36I R41K I62V L63P I64M A71V I84V L90M I93L, study 15) | 17 | 3.2 | 35 | 4.3 | 23 | – | 6.5 |
| HIV-1 isolate 866 (protease changes: L10I I13V I15V K20R L33F E34N E35D M36I K43T I47V I50L F53L Q58E I62V L63P I66F A71V V77I V82A I84V L89V, study 46) | 4.4 | 40 | 45 | 81 | 100 | – | 18 |
| HIV-1 isolate 885 (protease changes: L10I V32I M46I I47A I62V L63P V77I V82I Q92K I93L C95F, study 124) | 54 | – | 1.7 | 209 | 0.7 | 11 | – |
| HIV-1 isolate 921 (protease changes: L10I M46I R57G L63P I84V, study 132) | 125 | – | 6 | – | 125 | 80 | – |
| HIV-1 isolate 996 (protease changes: L10V K20R V32I L33F E35D M36I N37D M46I F53L I54L L63P I64M C67E A71V I72V V82A N83D L89V L90M I93L, study 15) | – | 112 | 93 | 72 | 400 | – | 23 |
| HIV-1 isolate 1040 (protease changes: L10V I13V I15V L19I L33F E34T M36L R41K M46I I47V I54V K55R Q61H I62V L63P A71T I72E G73A V77I V82C I85L L90M I93L, study 15) | 67 | 58 | 29 | 116 | 400 | – | 9.4 |

| Test System | fold change of IC50 against reference virus (nelfinavir) | fold change of IC50 against reference virus (atazanavir) | fold change of IC50 against reference virus (tipranavir) | fold change of IC50 against reference virus (lopinavir) | fold change of IC50 against reference virus (saquinavir) | fold change of IC50 against reference virus (ritonavir) | fold change of IC50 against reference virus (indinavir) |
| --- | --- | --- | --- | --- | --- | --- | --- |
| HIV-1 isolate 1060 (protease changes: L10I G16A L33F R41K K43T M46L F53L Q61E I62V L63P A71V T74P V77I V82A L90M I93L, study 15) | 41 | 32 | 35 | 47 | 200 | – | 24 |
| HIV-1 isolate 1062 (protease changes: L10I E34Q G48V I54S I62V L63P A71V T74S V77I V82A I93L, study 124) | 228 | – | 1.5 | 87 | 376 | 146 | 164 |
| HIV-1 isolate 1234 (protease changes: L10I L33F M46I I54V L63P A71V T74P I84V L90M I93L, study 124) | 40 | – | 6.2 | 46 | 36 | 72 | 18 |
| HIV-1 isolate 1249 (protease changes: L10F V32I L33F M46I I47V Q61E L63P V82A I93L, study 124) | 5.8 | – | 1 | 37 | 0.3 | 18 | 7 |
| HIV-1 isolate 1321 (protease changes: N37D D60E I62V L63P G68E V77I I93L, study 64) | 1.2 | 0.8 | 0.5 | – | 0.6 | 0.5 | 0.7 |
| HIV-1 isolate 1358 (protease changes: R57G, study 132) | 1 | – | 1 | – | 1 | 1 | 1 |
| HIV-1 isolate 1383 (protease changes: L10I N37D G48V F53L I54V L63P A71T V77I V82A L90M I93L, study 64) | 29 | 46 | 0.2 | – | – | 30 | 38 |
| HIV-1 isolate 1390 (protease changes: I13V I15V R41K I62V I64V V77I, study 122) | 100 | – | 4.8 | – | – | 100 | 100 |
| HIV-1 isolate 1412 (protease changes: T12A I15V R41K I62V L63P V77I I93L, study 64) | 0.6 | 0.7 | 0.9 | – | 1 | 0.4 | 0.5 |
| HIV-1 isolate 1437 (protease changes: L10I V11L I13V I15V G16A V32I L33F E34Q E35D M36I K43T M46I I47V F53L I54L K55R D60E I62V L63P I66V A71I G73T V77I I84V L90M I93L, study 15) | 91 | 400 | 400 | 400 | 400 | – | – |
| HIV-1 isolate 1446 (protease changes: L10F E35D N37D L63P A71V T74P I84V L90M I93L, study 8) | 20.5 | – | 1.2 | 3.7 | 16.3 | 15.4 | 8.2 |
| HIV-1 isolate 1495 (protease changes: L10I I13V G16A Q18H L33F N37D M46I I54V Q61H L63P A71L I72T L76V V77I N88G L90M I93L, study 8) | 1.6 | – | 0.8 | 46.3 | 0.6 | 16.2 | 8.7 |
| HIV-1 isolate 1496 (protease changes: I13V I15V R41K I62V I64V V77I, study 122) | 100 | – | 3.6 | – | – | 100 | 100 |
| HIV-1 isolate 1507 (protease changes: L10V M36I K43T G48V I54V I62V I64V T74S V82A, study 64) | 37 | 24 | 1 | – | 156 | 50 | 21 |
| HIV-1 isolate 1589 (protease changes: M46L I54V K70R V82A, study 132) | – | – | 2 | – | – | 32 | 20 |
| HIV-1 isolate 1606 (protease changes: I13V V32I L33F K45I R57G V82L I84V, study 76) | 5 | 37 | 16 | – | 0.6 | 61 | 28 |

Source: the supplement of paper PMC3578754
